A mixed list of measured activities; the numbers were collected in NIAID ChemDB.

Common to all: growth or infection tests; agent: HIV-1; method: p24; measure: EC95

ECn: concentration that inhibits the pathogen or its effect by n%.

structure	mutations	cell line	strain or isolate	value
CN(C)C(=O)c1cc(F)ccc1CNC(=O)c1nc(N2CCCCS2(=O)=O)c2cccnc2c1O	-	MT-4	-	<5 µM
CC(C)n1c(=O)c(O)c2n(c1=O)C[C@@H]1CC[C@H](c3ccccc3)N1C2=O	-	MT-4	-	<10 µM
CC(C)[C@H](NC(=O)OCc1ccccn1)C(=O)N[C@@H](Cc1ccccc1)[C@@H](O)C[C@H](Cc1ccccc1)NC(=O)OCc1cccnc1	PR-L10V T12I G16E R57K I64V	PBMC	Isolate A PR L10V/T12I/G16E/R57K/I64V	0.8 µM
CC(C)n1c(=O)c(O)c2n(c1=O)CCN(Cc1ccc(F)c(Cl)c1)C2=O	-	MT-4	-	<10 µM
N#Cc1cc(Cl)cc(Oc2cc(OCC(=O)Nc3ccc(S(N)(=O)=O)cc3Cl)ccc2Cl)c1	-	MT-4	-	<20 µM
Cc1ccccc1-n1nnnc1SCC(=O)Nc1ccccc1Cl	-	MT-4	-	<10 µM
N#Cc1cc(Cl)cc(Oc2cc(OCc3[nH]nc4ncccc34)cc(F)c2Cl)c1	-	MT-4	-	<20 µM
CN1CCc2nc(C(=O)NCc3ccc(F)cc3)c(O)c(=O)n2C1=O	-	MT-4	-	<50 µM
N#Cc1cc(Cl)cc(Oc2cc(OCc3nc(-c4ccccc4)no3)ccc2Cl)c1	-	MT-4	-	<20 µM
O=C1c2c(O)c(=O)n(CC3CCCN4CCCCC34)c(=O)n2CCN1Cc1ccc(F)cc1	-	MT-4	-	<10 µM
O=C(CCSc1nnnn1-c1cccc2ccccc12)Nc1ccccc1Cl	-	MT-4	-	<10 µM
CN1CCn2c3c(c(O)c2C1=O)C(=O)N(Cc1ccc(F)cc1)CC3	-	MT-4	-	≤10 µM
CCSCCn1c(=O)c(O)c2n(c1=O)CCN(Cc1ccc(F)cc1)C2=O	-	MT-4	-	<10 µM
O=C(NCc1ccc(F)cc1)c1nc2n(c(=O)c1O)CCNC21CCOCC1	-	MT-4	-	<1 µM
COC(=O)c1ccc(NC(=O)CSc2nnnn2-c2c(C)cc(C)cc2C)c(Cl)c1	-	MT-4	-	<10 µM
N#Cc1cc(Cl)cc(Oc2cc(OCc3[nH]nc4nc(N5CCC5)ccc34)ccc2Cl)c1	-	MT-4	-	<20 µM
C[C@@H]1O[C@H](CO)O[C@H]1n1cnc2c(N)ncnc21	-	MT-4	-	>10 µM
CNC(=O)c1cc(F)ccc1CNC(=O)c1nc(N(C)S(C)(=O)=O)c2cccnc2c1O	-	MT-4	-	<5 µM
CN(CC(N)=O)c1ccc2c(COc3ccc(Cl)c(Oc4cc(Cl)cc(C#N)c4)c3)[nH]nc2n1	-	MT-4	-	<20 µM
C[C@@H]1O[C@@H](CO)O[C@H]1n1cnc2c(=O)[nH]c(N)nc21	-	MT-4	-	>10 µM
Cc1cc(C)c(-n2nnnc2SCC(=O)Nc2ccccc2N)c(C)c1	-	MT-4	-	<10 µM
CC1c2nc(C(=O)NCc3ccc(F)cc3)c(O)c(=O)n2CCN1C(=O)C(=O)N(C)C	-	MT-4	-	<50 µM
O=C1c2c(O)c(=O)n(CCCn3ccnc3)c(=O)n2CCN1Cc1ccc(F)cc1	-	MT-4	-	<10 µM
CNC(=O)c1cc(F)ccc1CNC(=O)c1nc(N2CCCCS2(=O)=O)c2cccnc2c1O	-	MT-4	-	<5 µM
Cc1cc(C)c(-n2nnnc2SCC(=O)Nc2cccc(Br)n2)c(C)c1	-	MT-4	-	<10 µM
CN(C)C(=O)c1cc(F)ccc1CNC(=O)c1nc(N(C)S(C)(=O)=O)c2cccnc2c1O	-	MT-4	-	<5 µM
CN(C)C(=O)C(=O)N(C)C1CN(C2CC2)CCn2c1nc(C(=O)NCc1ccc(F)c(Cl)c1)c(O)c2=O	-	MT-4	-	<1 µM
CC(C)n1c(=O)c(O)c2n(c1=O)C(COCc1ccccc1)CN(Cc1ccc(F)cc1)C2=O	-	MT-4	-	<10 µM
CN(C)C(=O)C(=O)N1CCn2c(nc(C(=O)NCc3ccc(F)cc3)c(O)c2=O)C1	-	MT-4	-	<50 µM
C[C@H]1O[C@@H](CO)O[C@H]1n1cnc2c(=O)[nH]c(N)nc21	-	MT-4	-	>10 µM
Cc1ccc(S(=O)(=O)N2CCn3c(nc(C(=O)NCc4ccc(F)cc4)c(O)c3=O)C2)cc1	-	MT-4	-	<50 µM
O=C1c2c(O)c(=O)n(Cc3nccc4ccccc34)c(=O)n2CCN1Cc1ccc(F)cc1	-	MT-4	-	<10 µM
CC1(C)NC(=O)Cn2c1nc(C(=O)NCc1ccc(F)cc1)c(O)c2=O	-	MT-4	-	<50 µM
N#Cc1cc(C#N)cc(Oc2cc(Cl)cc(OCC(=O)Nc3ccc(S(N)(=O)=O)cc3Cl)c2)c1	-	MT-4	-	<20 µM
O=C1c2c(O)c(=O)n(CC3COCCN3)c(=O)n2CCN1Cc1ccc(F)cc1	-	MT-4	-	<10 µM
O=C(NCc1ccc(F)cc1)c1nc2n(c(=O)c1O)CCN(C(=O)C(F)(F)F)C2	-	MT-4	-	<50 µM

Repeating the final 4 entries:

CC1(C)NC(=O)Cn2c1nc(C(=O)NCc1ccc(F)cc1)c(O)c2=O ; cell line: MT-4 ; value: <50 µM
N#Cc1cc(C#N)cc(Oc2cc(Cl)cc(OCC(=O)Nc3ccc(S(N)(=O)=O)cc3Cl)c2)c1 ; cell line: MT-4 ; value: <20 µM
O=C1c2c(O)c(=O)n(CC3COCCN3)c(=O)n2CCN1Cc1ccc(F)cc1 ; cell line: MT-4 ; value: <10 µM
O=C(NCc1ccc(F)cc1)c1nc2n(c(=O)c1O)CCN(C(=O)C(F)(F)F)C2 ; cell line: MT-4 ; value: <50 µM

Neighbouring rows are from separate reports. An empty or dashed field is not shown.